Data taken from PMC6117091, “The C. difficile clnRAB operon initiates adaptations to the host environment in response to LL-37” (PLoS Pathogens, 2018).

Test system: C. difficile 630Δerm infection
Assay: Hamster model of C. difficile infection, clindamycin effect
Conditions: 30, 45, or 60 mg/kg by oral gavage 7 days prior to inoculation with 1000 spores of 630Δerm

With CCC[C@@H]1C[C@@H](C(=O)N[C@@H]([C@H]2O[C@H](SC)[C@H](O)[C@@H](O)[C@H]2O)[C@H](C)Cl)N(C)C1 [clindamycin] the “time to morbidity (in words)” value was “No statistically significant differences in time to morbidity were observed”.
